According to patent publication US4647687A, “Halogenated sulphides, process for their preparation and their use in microbicidal agents” (Bayer Aktiengesellschaft, priority 1983, dated 1987):
≈ marks a conversion by molar mass, not a printed value.

Assays:
Eschercihia coli = assay: Action against bacteria (MIC in broth agar); type: cell-based; conditions: Escherichia coli; 28° C., 60 to 70% relative humidity, 2 weeks
Staphylococcus aureus = assay: Action against bacteria (MIC in broth agar); type: cell-based; conditions: 28° C., 60 to 70% relative humidity, 2 weeks
Penicillium glaucum = assay: MIC against fungi, beerwort/peptone agar; conditions: 28° C., 60 to 70% relative humidity, 2 weeks
Aspergillus niger = assay: MIC against fungi, beerwort/peptone agar; conditions: 28° C., 60 to 70% relative humidity, 2 weeks
Sclerophoma pityophila = assay: MIC against fungi, beerwort/peptone agar; conditions: 28° C., 60 to 70% relative humidity, 2 weeks
Alternaria tenuis = assay: MIC against fungi, beerwort/peptone agar; conditions: 28° C., 60 to 70% relative humidity, 2 weeks

SMILES	MIC (Eschercihia coli)	MIC (Staphylococcus aureus)	MIC (Penicillium glaucum)	MIC (Aspergillus niger)	MIC (Sclerophoma pityophila)	MIC (Alternaria tenuis)
N#CC=C(Cl)SCC(Cl)(Cl)C#N	200 µg/mL (≈ 828 µM)	50 µg/mL (≈ 207 µM)	20 µg/mL (≈ 82.8 µM)	20 µg/mL (≈ 82.8 µM)	5 µg/mL (≈ 20.7 µM)	10 µg/mL (≈ 41.4 µM)
N#CC(Cl)=C(Cl)SCC(Cl)(Cl)C#N	50 µg/mL (≈ 181 µM)	50 µg/mL (≈ 181 µM)	10 µg/mL (≈ 36.2 µM)	10 µg/mL (≈ 36.2 µM)	2 µg/mL (≈ 7.25 µM)	5 µg/mL (≈ 18.1 µM)
